{
  "source": "patent US9663478B2",
  "about": "“Benzotriazine oxides as drugs targeting Mycobacterium tuberculosis” (priority 2011, dated 2017)",
  "data": [
    {"test_system": "Vero cells", "assay": "Cytotoxicity against Vero cells (Cell Titer-Glo)", "settings": "Tables 1-4 and text", "values": [
      {"smiles": "CCNc1n[n+]([O-])c2ccccc2[n+]1[O-]", "note": "[Compound 8a, 3-(ethylamino)benzo[e][1,2,4]triazine 1,4-dioxide]", "SI (CC50/MIC)": 17},
      {"smiles": "[O-][n+]1nc(NC2CC2)[n+]([O-])c2ccccc21", "note": "[Compound 8b, 3-(cyclopropylamino)benzo[e][1,2,4]triazine 1,4-dioxide]", "SI (CC50/MIC)": 8.3},
      {"smiles": "[O-][n+]1nc(NC2CCC2)[n+]([O-])c2ccccc21", "note": "[Compound 8d, 3-(cyclobutylamino)benzo[e][1,2,4]triazine 1,4-dioxide]", "SI (CC50/MIC)": 7.1},
      {"smiles": "[O-][n+]1nc(NC2CCCC2)[n+]([O-])c2ccccc21", "note": "[Compound 8e, 3-(cyclopentylamino)benzo[e][1,2,4]triazine 1,4-dioxide]", "SI (CC50/MIC)": 4.2},
      {"smiles": "[O-][n+]1nc(NC2CCCCC2)[n+]([O-])c2ccccc21", "note": "[Compound 8f, 3-(cyclohexylamino)benzo[e][1,2,4]triazine 1,4-dioxide]", "SI (CC50/MIC)": 3.6},
      {"smiles": "[O-][n+]1nc(NC2CCCCCC2)[n+]([O-])c2ccccc21", "note": "[Compound 8g, 3-(cycloheptylamino)benzo[e][1,2,4]triazine 1,4-dioxide]", "SI (CC50/MIC)": 3.2},
      {"smiles": "CCCC(C)Nc1n[n+]([O-])c2ccccc2[n+]1[O-]", "note": "(centres unmarked) [Compound 8h, 3-(pentan-2-ylamino)benzo[e][1,2,4]triazine 1,4-dioxide]", "SI (CC50/MIC)": 5.3},
      {"smiles": "CCC(COC)Nc1n[n+]([O-])c2ccccc2[n+]1[O-]", "note": "(centres unmarked) [Compound 8i, 3-((1-methoxybutan-2-yl)amino)benzo[e][1,2,4]triazine 1,4-dioxide]", "SI (CC50/MIC)": ">5.0"},
      {"smiles": "CC(C)(C)C1CCC(Nc2n[n+]([O-])c3ccccc3[n+]2[O-])CC1", "note": "(centres unmarked) [Compound 8j, 3-((4-(tert-butyl)cyclohexyl)amino)benzo[e][1,2,4]triazine 1,4-dioxide]", "SI (CC50/MIC)": 3.7},
      {"smiles": "C[C@@H](Nc1n[n+]([O-])c2ccccc2[n+]1[O-])C1CCCCC1", "note": "[Compound 8k, (R)-3-((1-cyclohexylethyl)amino)benzo[e][1,2,4]triazine 1,4-dioxide]", "SI (CC50/MIC)": 7.1},
      {"smiles": "CC(C)CCC(C)Nc1n[n+]([O-])c2ccccc2[n+]1[O-]", "note": "(centres unmarked) [Compound 8l, 3-((5-methylhexan-2-yl)amino)benzo[e][1,2,4]triazine 1,4-dioxide]", "SI (CC50/MIC)": 3.3},
      {"smiles": "[O-][n+]1nc(N[C@@H]2C[C@H]3CC[C@@H]2C3)[n+]([O-])c2ccccc21", "note": "[Compound 8m, 3-((1R,2R,4S)-bicyclo[2.2.1]heptan-2-ylamino)benzo[e][1,2,4]triazine 1,4-dioxide]", "SI (CC50/MIC)": 5.5},
      {"smiles": "[O-][n+]1nc(N[C@H]2[C@@H]3C[C@H]4C[C@@H](C3)C[C@@H]2C4)[n+]([O-])c2ccccc21", "note": "[Compound 8n, 3-((1R,3S,5r,7r)-adamantan-2-ylamino)benzo[e][1,2,4]triazine 1,4-dioxide]", "SI (CC50/MIC)": 2.9},
      {"smiles": "CCNc1n[n+]([O-])c2cc(F)ccc2[n+]1[O-]", "note": "[Compound 15aa, 3-(ethylamino)-7-fluorobenzo[e][1,2,4]triazine 1,4-dioxide]", "SI (CC50/MIC)": 7.3},
      {"smiles": "[O-][n+]1nc(NC2CC2)[n+]([O-])c2ccc(F)cc21", "note": "[Compound 15ab, 3-(cyclopropylamino)-7-fluorobenzo[e][1,2,4]triazine 1,4-dioxide]", "SI (CC50/MIC)": 2.2},
      {"smiles": "[O-][n+]1nc(NC2CCC2)[n+]([O-])c2ccc(F)cc21", "note": "[Compound 15ad, 3-(cyclobutylamino)-7-fluorobenzo[e][1,2,4]triazine 1,4-dioxide]", "SI (CC50/MIC)": 10},
      {"smiles": "[O-][n+]1nc(NC2CCCC2)[n+]([O-])c2ccc(F)cc21", "note": "[Compound 15ae, 3-(cyclopentylamino)-7-fluorobenzo[e][1,2,4]triazine 1,4-dioxide]", "SI (CC50/MIC)": 7.3},
      {"smiles": "[O-][n+]1nc(NC2CCCCC2)[n+]([O-])c2ccc(F)cc21", "note": "[Compound 15af, 3-(cyclohexylamino)-7-fluorobenzo[e][1,2,4]triazine 1,4-dioxide]", "SI (CC50/MIC)": "<4.0"},
      {"smiles": "CCC(COC)Nc1n[n+]([O-])c2cc(F)ccc2[n+]1[O-]", "note": "(centres unmarked) [Compound 15ai, 7-fluoro-3-((1-methoxybutan-2-yl)amino)benzo[e][1,2,4]triazine 1,4-dioxide]", "SI (CC50/MIC)": 1.3},
      {"smiles": "[O-][n+]1nc(N[C@@H]2C[C@H]3CC[C@@H]2C3)[n+]([O-])c2ccc(F)cc21", "note": "[Compound 15am, 3-((1R,2R,4S)-bicyclo[2.2.1]heptan-2-ylamino)-7-fluorobenzo[e][1,2,4]triazine 1,4-dioxide]", "SI (CC50/MIC)": "<4.0"},
      {"smiles": "CCNc1n[n+]([O-])c2cc(Cl)ccc2[n+]1[O-]", "note": "[Compound 15ba, 7-chloro-3-(ethylamino)benzo[e][1,2,4]triazine 1,4-dioxide]", "SI (CC50/MIC)": 2.1},
      {"smiles": "[O-][n+]1nc(NC2CC2)[n+]([O-])c2ccc(Cl)cc21", "note": "[Compound 15bb, 7-chloro-3-(cyclopropylamino)benzo[e][1,2,4]triazine 1,4-dioxide]", "SI (CC50/MIC)": 2.2},
      {"smiles": "[O-][n+]1nc(NC2CCC2)[n+]([O-])c2ccc(Cl)cc21", "note": "[Compound 15bd, 7-chloro-3-(cyclobutylamino)benzo[e][1,2,4]triazine 1,4-dioxide]", "SI (CC50/MIC)": 10},
      {"smiles": "[O-][n+]1nc(NC2CCCCC2)[n+]([O-])c2ccc(Cl)cc21", "note": "[Compound 15bf, 7-chloro-3-(cyclohexylamino)benzo[e][1,2,4]triazine 1,4-dioxide]", "SI (CC50/MIC)": 4.2},
      {"smiles": "CCC(COC)Nc1n[n+]([O-])c2cc(Cl)ccc2[n+]1[O-]", "note": "(centres unmarked) [Compound 15bi, 7-chloro-3-((1-methoxybutan-2-yl)amino)benzo[e][1,2,4]triazine 1,4-dioxide]", "SI (CC50/MIC)": 2.1},
      {"smiles": "[O-][n+]1nc(N[C@@H]2C[C@H]3CC[C@@H]2C3)[n+]([O-])c2ccc(Cl)cc21", "note": "[Compound 15bm, 3-((1R,2R,4S)-bicyclo[2.2.1]heptan-2-ylamino)-7-chlorobenzo[e][1,2,4]triazine 1,4-dioxide]", "SI (CC50/MIC)": 7.3},
      {"smiles": "CCNc1n[n+]([O-])c2cc(Br)ccc2[n+]1[O-]", "note": "[Compound 15ca, 7-bromo-3-(ethylamino)benzo[e][1,2,4]triazine 1,4-dioxide]", "SI (CC50/MIC)": 6.7},
      {"smiles": "[O-][n+]1nc(NC2CCC2)[n+]([O-])c2ccc(Br)cc21", "note": "[Compound 15cd, 7-bromo-3-(cyclobutylamino)benzo[e][1,2,4]triazine 1,4-dioxide]", "SI (CC50/MIC)": 24},
      {"smiles": "[O-][n+]1nc(NC2CCCC2)[n+]([O-])c2ccc(Br)cc21", "note": "[Compound 15ce, 7-bromo-3-(cyclopentylamino)benzo[e][1,2,4]triazine 1,4-dioxide]", "SI (CC50/MIC)": 110},
      {"smiles": "[O-][n+]1nc(N[C@@H]2C[C@H]3CC[C@@H]2C3)[n+]([O-])c2ccc(Br)cc21", "note": "[Compound 15cm, 3-((1R,2R,4S)-bicyclo[2.2.1]heptan-2-ylamino)-7-bromobenzo[e][1,2,4]triazine 1,4-dioxide]", "SI (CC50/MIC)": 2.6},
      {"smiles": "CCNc1n[n+]([O-])c2cc(OC)ccc2[n+]1[O-]", "note": "[Compound 15da, 3-(ethylamino)-7-methoxybenzo[e][1,2,4]triazine 1,4-dioxide]", "SI (CC50/MIC)": 6.3},
      {"smiles": "COc1ccc2c(c1)[n+]([O-])nc(NC1CCC1)[n+]2[O-]", "note": "[Compound 15dd, 3-(cyclobutylamino)-7-methoxybenzo[e][1,2,4]triazine 1,4-dioxide]", "SI (CC50/MIC)": 16},
      {"smiles": "COc1ccc2c(c1)[n+]([O-])nc(N[C@@H]1C[C@H]3CC[C@@H]1C3)[n+]2[O-]", "note": "[Compound 15dm, 3-((1R,2R,4S)-bicyclo[2.2.1]heptan-2-ylamino)-7-methoxybenzo[e][1,2,4]triazine 1,4-dioxide]", "SI (CC50/MIC)": ">80"},
      {"smiles": "CCNc1n[n+]([O-])c2cccc(C)c2[n+]1[O-]", "note": "[Compound 15ea, Ethyl-(5-methyl-1,4-dioxy-benzo[1,2,4]triazin-3-yl)-amine]", "SI (CC50/MIC)": 36},
      {"smiles": "Cc1cccc2c1[n+]([O-])c(NC1CCC1)n[n+]2[O-]", "note": "[Compound 15ed, 3-(cyclobutylamino)-5-methylbenzo[e][1,2,4]triazine 1,4-dioxide]", "SI (CC50/MIC)": 70},
      {"smiles": "Cc1cccc2c1[n+]([O-])c(NC1CCCC1)n[n+]2[O-]", "note": "[Compound 15ee, 3-(cyclopentylamino)-5-methylbenzo[e][1,2,4]triazine 1,4-dioxide]", "SI (CC50/MIC)": 12},
      {"smiles": "CCNc1n[n+]([O-])c2cc3c(cc2[n+]1[O-])CCC3", "note": "[Compound 15fa, 3-(ethylamino)-7,8-dihydro-6H-indeno[5,6-e][1,2,4]triazine 1,4-dioxide]", "SI (CC50/MIC)": 29},
      {"smiles": "[O-][n+]1nc(N[C@@H]2C[C@H]3CC[C@@H]2C3)[n+]([O-])c2cc3c(cc21)CCC3", "note": "[Compound 15fm, 3-((1R,2R,4S)-bicyclo[2.2.1]heptan-2-ylamino)-7,8-dihydro-6H-indeno[5,6-e][1,2,4]triazine 1,4-dioxide]", "SI (CC50/MIC)": ">41"},
      {"smiles": "COc1cc2c(cc1C)[n+]([O-])nc(NC1CCC1)[n+]2[O-]", "note": "[Compound 15gd, 3-(cyclobutylamino)-6-methoxy-7-methylbenzo[e][1,2,4]triazine 1,4-dioxide]", "SI (CC50/MIC)": ">20"},
      {"smiles": "COc1cc2c(cc1C)[n+]([O-])nc(N[C@@H]1C[C@H]3CC[C@@H]1C3)[n+]2[O-]", "note": "[Compound 15gm, 3-((1R,2R,4S)-bicyclo[2.2.1]heptan-2-ylamino)-6-methoxy-7-methylbenzo[e][1,2,4]triazine 1,4-dioxide]", "SI (CC50/MIC)": ">10"},
      {"smiles": "[O-][n+]1nc(N2CCOCC2)[n+]([O-])c2ccccc21", "note": "[Compound 17p, 3-morpholinobenzo[e][1,2,4]triazine 1,4-dioxide]", "SI (CC50/MIC)": 2.2}
    ]},
    {"test_system": "Vero cells", "assay": "Cytotoxicity against Vero cells (Cell Titer-Glo)", "settings": "ratio of the CC50/TB-MIC; Tables P1-P3", "values": [
      {"smiles": "C[C@@H](Nc1n[n+]([O-])c2ccccc2[n+]1[O-])C1CCCCC1", "note": "(racemic) [SRI-012261]", "SI": 7.1},
      {"smiles": "[O-][n+]1nc(N[C@@H]2C[C@H]3CC[C@@H]2C3)[n+]([O-])c2ccccc21", "note": "(racemic) [SRI-012264]", "SI": 5.5},
      {"smiles": "C[C@@H]1[C@H]2C[C@@H](C[C@H]1Nc1n[n+]([O-])c3ccccc3[n+]1[O-])C2(C)C", "note": "(racemic) [SRI-012273]", "SI": 3.7},
      {"smiles": "[O-][n+]1nc(N[C@@H]2C[C@H]3CC[C@@H]2C3)[n+]([O-])c2ccc(F)cc21", "note": "(racemic) [SRI-012280]", "SI": "<4"},
      {"smiles": "[O-][n+]1nc(N[C@@H]2C[C@H]3CC[C@@H]2C3)[n+]([O-])c2cc3c(cc21)CCC3", "note": "(racemic) [SRI-012404]", "SI": 40},
      {"smiles": "Cc1cccc2c1[n+]([O-])c(N[C@@H]1C[C@H]3CC[C@@H]1C3)n[n+]2[O-]", "note": "(racemic) [SRI-012461]", "SI": 14.7}
    ]}
  ]
}
